Reference: article PMC12431669, “Divergent resistance pathways amongst SARS-CoV-2 PLpro inhibitors highlight the need for scaffold diversity” (2025)

Assays:
[1] = tested on: SARS-CoV-2; conditions: read-out: efficacy in cell-based assays measuring viral replication; literature value; cited from earlier work
[2] = molecular target: SARS-CoV-2 PLpro (Severe acute respiratory syndrome coronavirus 2, UniProt P0DTD1); test: Cellular FRET biosensor PLpro inhibitor assay

Question: What does the source list for `CCO/N=C(/c1ccc2cc(OC)ccc2c1)[C@@H]1CCCN([C@H]2CC[C@@H](O)CC2)C1`?
Answer: EC50 [1]: 298 nM; EC50 ([2]; HEK293T PLpro-biosensor cells, 8-point titration, overnight, average of two biological replicates): 100 nM; EC95 concentration ([2]; concentration used for DMS treatment): 3000 nM
